Measured values from several laboratories, pooled; numbers as filed in NIAID ChemDB.

Common to all: growth or infection tests; organism: Aspergillus niger; method: agar diffusion; measure: zone

Rows are shuffled and stem from different studies. Zones are inhibition diameters on agar. An empty or dashed field is not shown.

smiles,tested at,strain,value
CCOC(=O)/C(C)=N/Nc1ccccc1,5000 µg/mL,,1.85 mm
Cc1ccc2c(c1)C(C=NNC(=O)N1c3ccccc3C=Cc3ccccc31)C(c1ccccc1)=N2,750 µg/mL,MTCC 281,12 mm
Cc1ccc(NC(=O)c2ccc(CN3CCN(C)CC3)cc2)cc1Nc1nccc(-c2cccnc2)n1,100 µM,,19 mm
Cc1ccc(/C=C/C(=NCCCn2ccnc2)c2ccccc2O)cc1.[Cl][Cu],100 µg/mL,,16 mm
COc1ccc(-c2cc(-c3cc4c(cc3OC)OC(C)(C)CC4)nc(N)n2)cc1,100 µg/mL,,15 mm
Cc1ccc(/C=C(\C#N)c2ccc([N+](=O)[O-])cc2)cc1,100 µg,,0 mm
NC(=S)NNC(=O)c1cc2ccccc2[nH]1,5000 µg/mL,,0 mm
CCCCOc1ccc(-c2csc(NS(=O)(=O)C3C(=O)ONN3c3ccc(C)cc3)n2)cc1,250 µg/mL,MTCC 282,24 mm
COc1ccc(C2CC(=O)C3=C(C2)OC2=C(C(=O)CC(c4ccc(OC)c(OC)c4)C2)C3c2ccc(C3C4=C(CC(c5ccc(OC)c(OC)c5)CC4=O)OC4=C3C(=O)CC(c3ccc(OC)c(OC)c3)C4)cc2)cc1OC,20 µg/mL,ATCC 10949,0 mm
Cc1c(O)cc2c(c1O)C(=O)c1ccccc1C2=O,13.3 µg/disc,,0 mm
CC(=O)Nc1nc(C)c(-c2n[nH]c(=S)n2N2C(=O)CSC2c2ccc(Cl)cc2)s1,100 µg/mL,,24 mm
N=C1OCC(=O)N1CCCNc1ccnc2cc(Cl)ccc12,400 µg/mL,,54 mm
O=C(NN=CC1C(c2ccccc2)=Nc2ccc(Cl)cc21)N1c2ccccc2C=Cc2ccccc21,500 µg/mL,MTCC 281,12 mm
Oc1ccccc1C(/C=C/c1ccccc1)=NCCCn1ccnc1,100 µg/mL,,14 mm
O=C1CC(c2ccccc2)CC2=C1C(c1cccc(C3C4=C(CC(c5ccccc5)CC4=O)OC4=C3C(=O)CC(c3ccccc3)C4)c1)C1=C(CC(c3ccccc3)CC1=O)O2,40 µg/disc,ATCC 10949,0 mm
CC[C@H](CC[C@@H](C)[C@H]1CCC2C3CC=C4CC(CC(=O)O)CC[C@]4(C)C3CC[C@@]21C)C(C)C,500 µg/mL,ATCC 16404,0 mm
Cc1nn(-c2ccccc2)c2c1C1(C(=O)N(CCCCCCN3C(=O)C4(SCC(=O)N4c4c(C)n(C)n(-c5ccccc5)c4=O)c4cc(F)ccc43)c3ccccc31)c1c(C)nn(-c3ccccc3)c1O2,100 µg/mL,MTCC 282,16 mm
Cc1ccc(N2NOC(=O)C2S(=O)(=O)Nc2ccc(-n3c(-c4ccccc4Cl)nc4ccccc4c3=O)cc2)cc1,250 µg/mL,MTCC 282,22 mm
Clc1ccc(COC(Cn2ccnc2)c2ccc(Cl)cc2Cl)c(Cl)c1,30 µg/mL,,24 mm
COc1cc2c(cc1-c1cc(-c3ccc(F)cc3)nc(N)n1)CCC(C)(C)O2,100 µg/mL,,24 mm
CC(=O)N1CCN(c2ccc(OC[C@H]3CO[C@](Cn4ccnc4)(c4ccc(Cl)cc4Cl)O3)cc2)CC1,10 mg/disc,,10.3 mm
COc1cc2c(cc1-c1cc(-c3ccc(C#N)cc3)nc(N)n1)CCC(C)(C)O2,100 µg/mL,,17 mm
O=C(NN1C(=O)CSC1C1C(c2ccccc2)=Nc2ccc(Cl)cc21)N1c2ccccc2C=Cc2ccccc21,1000 µg/mL,MTCC 281,14 mm
Clc1ccc(COC(Cn2ccnc2)c2ccc(Cl)cc2Cl)c(Cl)c1,100 µg/mL,,18 mm
CS(=O)(=O)c1nc(N)c(C#N)c(-c2ccccc2)n1,25 µg/mL,MTCC 282,18 mm
C=CC(C)(O)CC/C=C(\C)CCC=C(C)C,500 µg/mL,ATCC 16404,16.2 mm
Cc1ccc(/C=C(\C#N)c2ccccc2)cc1,100 µg,,0 mm
COc1cc2c(cc1-c1cc(-c3ccc(C)cc3)nc(N)n1)CCC(C)(C)O2,100 µg/mL,,16 mm
CC(C)=CCC/C(C)=C/CC/C(C)=C/CC/C=C(/C)CC/C(C)=C\CO,500 µg/mL,ATCC 16404,13.4 mm
CS(=O)(=O)c1nc(N)c(C#N)c(-c2ccc(Cl)cc2)n1,100 µg/mL,MTCC 282,20 mm
Cc1ccc2c(c1)C1(C(=O)N2CCCCCCN2C(=O)C3(SCC(=O)N3c3c(C)n(C)n(-c4ccccc4)c3=O)c3ccccc32)c2c(C)nn(-c3ccccc3)c2Oc2c1c(C)nn2-c1ccccc1,100 µg/mL,MTCC 282,17 mm
CC(=O)N[C@@H]1[C@@H](OC(C)=O)[C@H](OC(C)=O)[C@@H](COC(C)=O)O[C@H]1Sc1n[nH]c(-c2cc3ccccc3[nH]2)n1,5000 µg/mL,,0 mm
CC(=O)Nc1nc(C)c(-c2n[nH]c(=S)n2N2C(=O)CSC2c2ccc(Br)cc2)s1,100 µg/mL,,22 mm
N#C/C(=C\c1ccc(Br)cc1)c1ccc([N+](=O)[O-])cc1,100 µg,,0 mm
Cc1ccc(N2NOC(=O)C2S(=O)(=O)Nc2nc3ccc(Br)cc3s2)cc1,250 µg/mL,MTCC 282,21 mm
O=C1c2ccccc2C(=O)c2c1cc(O[C@@H]1O[C@H](CO[C@@H]3OC[C@@H](O)[C@H](O)[C@H]3O)[C@@H](O)[C@H](O)[C@H]1O)c(CO)c2O,13.3 µg/disc,,0 mm
Cc1c(N2C(=O)CSC23C(=O)N(CCCCCCBr)c2ccc(F)cc23)c(=O)n(-c2ccccc2)n1C,100 µg/mL,MTCC 282,16 mm
Oc1ccccc1C(/C=C/c1ccccc1)=NCCCn1ccnc1.[Cl][Ni],100 µg/mL,,15 mm
CC(C)[C@@H](C)/C=C/[C@@H](C)[C@H]1CCC2C3=CC=C4CC(O)CC[C@]4(C)C3CC[C@@]21C,500 µg/mL,ATCC 16404,0 mm
CSC1=NC(c2cccc([N+](=O)[O-])c2)C(C#N)=C(N)N1,25 µg/mL,MTCC 282,12 mm
COc1ccc(-c2nc3ccccc3c(=O)n2-c2ccc(NS(=O)(=O)C3C(=O)ONN3c3ccc(C)cc3)cc2)cc1[N+](=O)[O-],250 µg/mL,MTCC 282,22 mm
CC1(C)C=C2C3CCC4[C@@]5(C)CC[C@H](OC(=O)/C=C/c6ccc(O)cc6)C(C)(C)C5CC[C@@]4(C)[C@]3(C)CC[C@@]2(C)CC1,30 mg/disc,UPCC 3701,0 mm
NCCCNc1ccnc2cc(Cl)ccc12,400 µg/mL,,53 mm
CC(=O)Nc1nc(C)c(-c2n[nH]c(=S)n2N2C(=O)CSC2c2ccc(N(C)C)cc2)s1,100 µg/mL,,19 mm
COc1cc2c(c(O)c1C)C(=O)c1c(ccc(OC)c1O)C2=O,13.3 µg/disc,,<6.2 mm
N#C/C(=C\c1ccccc1Cl)c1ccc([N+](=O)[O-])cc1,100 µg,,0 mm
Cc1ccc2c(c1)C1(SCC(=O)N1c1c(C)n(C)n(-c3ccccc3)c1=O)C(=O)N2CCCCCCBr,100 µg/mL,MTCC 282,15 mm
O=[N+]([O-])c1ccc(/C=C/C(=NCCCn2ccnc2)c2ccccc2O)cc1,100 µg/mL,,16 mm
Cc1ccc(N2NOC(=O)C2S(=O)(=O)Nc2ccc(-n3c(-c4cccc(Br)c4)nc4ccccc4c3=O)cc2)cc1,250 µg/mL,MTCC 282,18 mm
CC(=O)Nc1nc(C)c(-c2n[nH]c(=S)n2N2C(=O)CSC2c2ccccc2[N+](=O)[O-])s1,100 µg/mL,,9 mm
CC1(C)CC(=O)C2=C(C1)OC1=C(C(=O)CC(C)(C)C1)C2c1ccc(C2C3=C(CC(C)(C)CC3=O)OC3=C2C(=O)CC(C)(C)C3)cc1,140 µg/disc,ATCC 10949,0 mm
Cc1ccc(N2NOC(=O)C2S(=O)(=O)Nc2ccc(-n3c(-c4ccccc4[N+](=O)[O-])nc4ccccc4c3=O)cc2)cc1,250 µg/mL,MTCC 282,24 mm
CC1(C)CCC2=C(C1=O)C(c1cccc(C3C4=C(CCC(C)(C)C4=O)OC4=C3C(=O)C(C)(C)CC4)c1)C1=C(CCC(C)(C)C1=O)O2,40 µg/disc,ATCC 10949,0 mm
Cc1ccc(Oc2ccc(-c3nc4ccccc4c4cc5ccccc5n34)cc2)cc1,1000 µg/mL,,10 mm
O=C1CCCC2=C1C(c1ccc(C3C4=C(CCCC4=O)OC4=C3C(=O)CCC4)cc1)C1=C(CCCC1=O)O2,20 µg/mL,ATCC 10949,0 mm
Cc1ccsc1/C=N/NC(N)=O,250 µg/mL,,0 mm